PubChem BioAssay AID1259414 | Drosophila RNAi Screening Center – 2018
The screen tested about 24,000 reagents; below is an unselected part of those that have a named target and a result. Of all reagents, about 1,210 (5%) were called active. 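Inactive calls also include excluded dsRNAs with several or no targets, genes unexpressed in JW18, and well A1, regardless of score.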 The numbers tell different reagents against one gene apart. A plus sign joins genes that one reagent is predicted to hit.

- Screen: 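Fly genes that alter Wolbachia amount inside host cells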 (primary screen)
- Cells: Drosophila JW18 cells infected with Wolbachia
- Reagents: long dsRNA against Drosophila genes, 0.25 µg dsRNA per well of a 384-well plate
- Timing: 5 days
- Treatment: cells persistently infected with Wolbachia before knock-down; no added drug
- Read-out: 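Imaged fluorescence in situ signal for Wolbachia 23S rRNA per DAPI-counted host cell, given as a robust z-score within each plate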
- Scale: Wolbachia per cell robust z: higher = more Wolbachia per host cell than the plate typical
- Call rule: 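Hit when robust z is 1.5 or more, or -1.5 or less, in at least two of three replicates; excludes dsRNAs with several or no targets, genes not expressed in JW18 and well A1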

Target gene | dsRNA no. | Wolbachia per cell robust z, rep 1 | Wolbachia per cell robust z, rep 2 | Wolbachia per cell robust z, rep 3 | Outcome
CG9316 | 1 | 0.608 | 0.615 | -0.646 | inactive
Drep1 (DNA fragmentation factor-related protein 1) | 1 | -1.03 | 0.698 | -1.97 | inactive
pdm3 (pou domain motif 3) | 1 | -0.562 | -0.531 | -0.246 | inactive
pdm3 (pou domain motif 3) | 2 | 0.433 | 0.696 | 1.04 | inactive
pdm3 (pou domain motif 3) | 3 | 0.978 | 0.425 | 0.4 | inactive
pdm3 (pou domain motif 3) | 4 | 0.863 | -0.147 | 0.932 | inactive
pnut (peanut) | 1 | 0.946 | -0.609 | -0.0655 | inactive
pnut (peanut) | 2 | 0.93 | -0.0505 | 1.2 | inactive
CG5715 | 1 | 0.00385 | -1.51 | -0.145 | inactive
CG5715 | 2 | -1.06 | 0.507 | -1.08 | inactive
Ccp84Ac | 1 | 0.158 | -1.15 | -1.74 | inactive
Ccp84Ac | 2 | -4.28 | -0.68 | -0.536 | inactive
snama (something that sticks like glue) | 1 | -4.21 | -0.581 | -0.841 | inactive
snama (something that sticks like glue) | 2 | 0.0792 | -0.748 | -0.262 | inactive
prtp (pretaporter) | 1 | -2.48 | -1.18 | 0.212 | inactive
prtp (pretaporter) | 2 | 0.33 | -0.261 | -0.207 | inactive
haf (hattifattener) | 1 | 0.407 | 1.1 | -1.14 | inactive
igl (igloo) | 1 | -1.02 | 0.305 | 0.201 | inactive
igl (igloo) | 2 | -0.485 | 0.391 | -7.62 | inactive
FMRFaR (FMRFamide Receptor) | 1 | -0.18 | -0.677 | 0.328 | inactive
CG34001 | 1 | 0.632 | 0.122 | 1.36 | inactive
CG12506 | 1 | 0.826 | -5.39 | -0.0293 | inactive
CG32576 | 1 | 0.525 | 0.812 | 1.08 | inactive
Cyp6d5 (Cytochrome P450 6d5) | 1 | 1.6 | -0.335 | 0.376 | inactive
Cyp6d5 (Cytochrome P450 6d5) | 2 | -2.07 | 0.99 | 0.352 | inactive
Mf (Myofilin) | 1 | 0.612 | -0.452 | -0.122 | inactive
CG8206 | 1 | -2.53 | -1.47 | -0.121 | inactive
CG33144 | 1 | 1.3 | 1.5 | 0.392 | inactive
CG33144 | 2 | -0.595 | 0.233 | 0.542 | inactive
CPT2 (Carnitine palmitoyltransferase 2) | 1 | -0.319 | -1.4 | 0.717 | inactive
Sap30 (SIN3-associated polypeptide 30) | 1 | -1.13 | -0.533 | -0.0234 | inactive
CG18081 | 1 | 0.832 | 0.0889 | -0.0252 | inactive
CG18081 | 2 | -0.392 | 0.167 | -0.931 | inactive
CG1677 | 1 | 0.208 | -1.41 | 0.0411 | inactive
CG30350 | 1 | 0.786 | -0.0116 | 0.296 | inactive
Muc91C (Mucin 91C) | 1 | 0.48 | -0.984 | 0.0108 | inactive
Muc91C (Mucin 91C) | 2 | -1.04 | -1.03 | -1.25 | inactive
Muc91C (Mucin 91C) | 3 | 0.64 | -2.64 | -0.653 | inactive
CG10801 | 1 | 0.832 | 0.911 | 0.501 | inactive
CG5781 | 1 | 0.443 | -0.153 | 1.45 | inactive
CG14635 | 1 | -1.11 | -1.26 | 0.368 | inactive
CG14635 | 2 | -1.44 | 0.172 | -0.543 | inactive
CG17744 | 1 | -0.137 | 0.991 | 0.577 | inactive
osk (oskar) | 1 | -2.74 | 0.463 | -5.75 | active
stnA + stnB | 1 | 0.584 | 1.03 | 0.937 | inactive
CG34189 | 1 | 0.623 | -0.597 | -0.201 | inactive

Targets above whose gene name begins with I or i (2):
Target gene | dsRNA no. | Wolbachia per cell robust z, rep 1 | Wolbachia per cell robust z, rep 2 | Wolbachia per cell robust z, rep 3 | Outcome
igl (igloo) | 1 | -1.02 | 0.305 | 0.201 | inactive
igl (igloo) | 2 | -0.485 | 0.391 | -7.62 | inactive

Continued.
Target gene | dsRNA no. | Wolbachia per cell robust z, rep 1 | Wolbachia per cell robust z, rep 2 | Wolbachia per cell robust z, rep 3 | Outcome
Incenp (Inner centromere protein) | 1 | 1.96 | -0.111 | 1.49 | inactive
Incenp (Inner centromere protein) | 2 | 0.359 | -0.398 | -0.908 | inactive
Incenp (Inner centromere protein) | 3 | 1.87 | 4.39 | 4.8 | active
CG17019 | 1 | -3.97 | 0.447 | 0.605 | inactive
kay (kayak) | 1 | 0.0849 | -1.58 | -0.175 | inactive
kay (kayak) | 2 | 3.1 | 3.41 | 3.07 | active
kay (kayak) | 3 | 0.487 | -0.994 | 1.38 | inactive
moody | 1 | -0.636 | -7.4 | -3.65 | active
Cyp309a2 (Cytochrome P450 309a2) | 1 | 2.07 | 1.08 | 0.0276 | inactive
Cyp309a2 (Cytochrome P450 309a2) | 2 | -1.18 | 0.611 | -0.383 | inactive
CHKov2 (CHK domain ov2) | 1 | -1.85 | -0.335 | -0.132 | inactive
CHKov2 (CHK domain ov2) | 2 | 0.0336 | 0.585 | 0.101 | inactive
Acat2 (Acetyl-CoA acetyltransferase 2) | 1 | -0.378 | 0.00519 | -0.358 | inactive
Obp47b + CG7741 | 1 | 0.403 | -0.504 | -0.404 | inactive
CG42449 | 1 | 0.113 | -0.00011 | -3.68 | inactive
CG42449 | 2 | -2.91 | -2.85 | -2.26 | inactive
Ca-alpha1T (Ca[2+]-channel protein alpha[[1]] subunit T) | 1 | -1.35 | -5.75 | 0.202 | inactive
Ca-alpha1T (Ca[2+]-channel protein alpha[[1]] subunit T) | 2 | 1.22 | 0.483 | 0.542 | inactive
Ca-alpha1T (Ca[2+]-channel protein alpha[[1]] subunit T) | 3 | -4.41 | -1.02 | -4.44 | inactive
Ca-alpha1T (Ca[2+]-channel protein alpha[[1]] subunit T) | 4 | -2.04 | -0.495 | -0.15 | inactive
Ca-alpha1T (Ca[2+]-channel protein alpha[[1]] subunit T) | 5 | -0.688 | -0.327 | 0.6 | inactive
CG13539 | 1 | -0.667 | -0.753 | -0.389 | inactive
CG13539 | 2 | -0.379 | 1.23 | -0.484 | inactive
